Pooled drug test results. Numbers come from NIAID ChemDB, via PubChem.

All rows: target-level tests

Fold resistance has wild type as its base. An empty or dashed field is not shown. Neighbouring rows are from separate reports. Percent inhibition refers to the dose given; in toxicity tests it is the harm to the cells. ICn is the concentration giving n% inhibition.

SMILES,agent,strain or isolate,mutations,target,read by,read-out,dose,value
CC(C)=CCN1Cc2cccc3[nH]c(=S)n(c23)C[C@@H]1C,HIV,-,RT-K263V,Reverse transcriptase,nucleotide incorporation,fold resistance,-,0.87
Nc1ncnc2c1ncn2[C@@H]1O[C@H](CO)[C@@H](OP(O)(=S)OC[C@H]2O[C@@H](n3cnc4c(=O)[nH]c(NCc5cccc6ccccc56)nc43)[C@H](O)[C@@H]2O)[C@H]1F,HIV-1,-,-,RNase H,RNase H,inhibition,50 µM,61%
Nc1nc2c(ncn2[C@H]2CC[C@@H](COP(=O)(O)OP(=O)(O)OP(=O)(O)OP(=O)(O)OC[C@@H]3CC[C@H](n4cnc5c(=O)[nH]c(N)nc54)O3)O2)c(=O)[nH]1,HIV,-,RT-D67N K70R T215Y K219Q,Reverse transcriptase,nucleotide incorporation / radiometric,fold resistance,-,0.325
CC(C)(C)NC(=O)[C@@H]1CCCN1C(=O)[C@@H](O)[C@H](Cc1ccccc1)NC(=O)[C@H](CC(N)=O)NS(=O)(=O)c1cccc2ccccc12,HIV-1,-,-,Protease,-,inhibition,0.05 µM,11.8%
Nc1ncnc2c1ncn2[C@@H]1O[C@H](COP(=O)(O)O[C@H]2[C@@H](O)[C@H](n3cnc4c(N)ncnc43)O[C@@H]2CO)[C@@H](O)[C@H]1O,HIV-1,-,-,RNase H,RNase H,inhibition,50 µM,6%
Nc1nc2c(ncn2[C@H]2CC[C@@H](COP(=O)(O)OP(=O)(O)OP(=O)(O)O)O2)c(=O)[nH]1,HIV,-,RT-M41L T215Y,Reverse transcriptase,nucleotide incorporation / radiometric,fold resistance,-,0.66
COc1ccnc2[nH]cc(C(=O)C(=O)N3CCN(C(=O)c4ccccc4)C[C@H]3C)c12,HIV-1,LAI,GP120-M475I,gp120,ELISA,fold resistance,-,83
CC(C)=CCN1Cc2cccc3[nH]c(=S)n(c23)C[C@@H]1C,HIV,-,-,Reverse transcriptase,nucleotide incorporation,Ki,-,0.63 µM
Nc1ccn([C@H]2CC[C@@H](COP(=O)(O)OP(=O)(O)OP(=O)(O)OP(=O)(O)OC[C@@H]3CC[C@H](n4ccc(N)nc4=O)O3)O2)c(=O)n1,HIV,-,RT-M41L T215Y,Reverse transcriptase,nucleotide incorporation / radiometric,fold resistance,-,0.53
CC(C)(C)NC(=O)C1CCCN1C(=O)[C@@H](O)[C@H](Cc1ccccc1)NC(=O)[C@H](CC(N)=O)NC(=O)OC(C)(C)C,HIV-1,-,-,Protease,-,inhibition,5 µM,31.2%
Cc1cn([C@H]2CC[C@@H](COP(=O)(O)OP(=O)(O)OP(=O)(O)OP(=O)(O)OC[C@@H]3CC[C@H](n4cc(C)c(=O)[nH]c4=O)O3)O2)c(=O)[nH]c1=O,HIV,-,RT-W88G,Reverse transcriptase,nucleotide incorporation / radiometric,fold resistance,-,4
NC(=O)C[C@H](NC(=O)[C@@H](N)Cc1ccccc1)C(=O)N[C@@H](Cc1ccccc1)[C@@H](O)C(=O)NCC1CCCCC1,HIV-1,-,-,Protease,-,inhibition,1000 µM,56.6%
Nc1nc2c(ncn2[C@@H]2O[C@H](COP(O)(=S)O[C@H]3C[C@H](n4cnc5c(N)ncnc54)O[C@@H]3CO)[C@@H](O)[C@H]2O)c(=O)[nH]1,HIV-1,-,-,RNase H,RNase H,inhibition,50 µM,1%
Cc1cc(S(=O)(=O)Nc2nc(=O)c3ccccc3n2C)c(SCOc2ccccc2)cc1Cl,HIV,-,-,Integrase,strand transfer,IC50,-,90 µM
Nc1ccn([C@@H]2CS[C@H](COP(=O)(O)OP(=O)(O)OP(=O)(O)O)O2)c(=O)n1,HIV,-,RT-D67N K70R T215Y K219Q,Reverse transcriptase,radiometric,Ki,-,0.595 µM
Nc1ccn(C2OC(COP(=O)(O)OC3C(CO)OC(n4ccc(N)nc4=O)C3O)C(O)C2O)c(=O)n1,HIV-1,-,-,RNase H,RNase H,inhibition,50 µM,23%
Cc1cn([C@H]2CC[C@@H](COP(=O)(O)OP(=O)(O)OP(=O)(O)O)O2)c(=O)[nH]c1=O,HIV,-,RT-W88G,Reverse transcriptase,nucleotide incorporation / radiometric,IC50,-,0.41 µM
CC(C)(C)NC(=O)[C@@H]1CCCN1C(=O)[C@@H](O)[C@H](Cc1ccccc1)NC(=O)[C@H](CC(N)=O)NC(=O)OCc1cccc2ccccc12,HIV-1,-,-,Protease,-,IC50,-,<5 µM
CCCC(C)Nc1nc(OCCc2ccc([N+](=O)[O-])cc2)c2ncn([C@@H]3O[C@H](COP(O)(=S)O[C@H]4C[C@H](n5cnc6c(N)ncnc65)O[C@@H]4CO)[C@@H](O)[C@H]3O)c2n1,HIV-1,-,-,RNase H,RNase H,inhibition,50 µM,100%
CC(C)[C@H](NC(=O)COc1cccc2cnccc12)C(=O)N[C@@H](Cc1ccccc1)[C@H](O)C(=O)N1CSC[C@H]1C(=O)NC(C)(C)C,HIV-1,-,-,Protease,-,IC50,-,<0.05 µM
CCCCN(CCCC)c1nc2c(ncn2[C@@H]2O[C@H](COP(=O)(O)O[C@H]3[C@@H](F)[C@H](n4cnc5c(=O)[nH]c(N)nc54)O[C@@H]3CO)[C@@H](O)[C@H]2O)c(=O)[nH]1,HIV-1,-,-,RNase H,RNase H,inhibition,50 µM,12%
CC[C@@H](C)[C@H](NC(=O)[C@@H]1CCCN1C(=O)[C@@H](O)[C@H](Cc1ccccc1)NC(=O)CCc1ccccc1)C(=O)N[C@H](C(N)=O)C(C)C,HIV-1,-,-,Protease,-,inhibition,5 µM,25.8%
Cc1cc(S(=O)(=O)/[NH+]=C2/N=C3C=C(c4ccc(Cl)cc4)SC3C(=O)N2Cc2ccccc2)c(S)cc1Cl,HIV,-,-,Integrase,strand transfer,IC50,-,4 µM
CC(C)(C)NC(=O)[C@H]1N(C(=O)[C@@H](O)[C@H](Cc2ccccc2)NC(=O)[C@H](CSN)NC(=O)COc2cccc(-c3ccccc3)c2)CSC1(C)C,HIV-1,-,-,Protease,-,inhibition,0.05 µM,99.2%
Nc1nc2c(ncn2[C@H]2C[C@H](OP(=O)(O)OC[C@H]3O[C@@H](n4cnc5c(=O)[nH]c(N)nc54)C[C@@H]3O)[C@@H](CO)O2)c(=O)[nH]1,HIV-1,-,-,RNase H,RNase H,inhibition,50 µM,9%
N[C@@H](CO)C(=O)N[C@@H](Cc1ccccc1)[C@@H](O)C(=O)NCC1CCCCC1,HIV-1,-,-,Protease,-,inhibition,1000 µM,10.3%
Cc1cc(S(=O)(=O)/[NH+]=C2/N=C3C=C(c4ccsc4)SC3C(=O)N2Cc2ccco2)c(S)cc1Cl,HIV,-,-,Integrase,strand transfer,IC50,-,6 µM

For reference, 2 entries again:

{"SMILES": "Nc1nc2c(ncn2[C@H]2C[C@H](OP(=O)(O)OC[C@H]3O[C@@H](n4cnc5c(=O)[nH]c(N)nc54)C[C@@H]3O)[C@@H](CO)O2)c(=O)[nH]1", "agent": "HIV-1", "target": "RNase H", "read by": "RNase H", "read-out": "inhibition", "dose": "50 µM", "value": "9%"}
{"SMILES": "CC(C)(C)NC(=O)[C@@H]1CCCN1C(=O)[C@@H](O)[C@H](Cc1ccccc1)NC(=O)[C@H](CC(N)=O)NS(=O)(=O)c1cccc2ccccc12", "agent": "HIV-1", "target": "Protease", "read-out": "inhibition", "dose": "0.05 µM", "value": "11.8%"}